Compound potency records, mixed from different reports. Data source: NIAID ChemDB in PubChem.

Shared fields: cytotoxicity tests; cells: HepG2; read by: MTT; read-out: CC50

CCn: concentration that lowers growth or viability of the cells by n%.

compound	value
Cc1c2c(c(C(=O)Nc3ccc(F)c(F)c3)n1C)CCC(C)NC2=O	>30 µM
CC(C)C[C@@H]1NC(=O)[C@H](Cc2c[nH]c3ccccc23)NC(=O)[C@@H](C)NC(=O)[C@H](CCCCN)NC(=O)[C@H](C(C)C)NC(=O)[C@@H](CC(C)C)NC1=O	>30 µM
COc1ccc(/C=C/C(=O)NCCCCNc2c3ccc(Cl)cc3nc3ccc(OC)cc23)cc1	20.5 µM
Cc1cc(NC(=O)c2c3c(c(C)n2C)C(=O)NC(C)(C)CC3)ccc1F	>30 µM
CCCCCC[C@H](C)CC1=C(O)c2cccc(C)c2C(=O)C1=O	2.48 µM
Cc1c(C(=O)Nc2ccc(F)c(C(N)=O)c2)c(C)n(C)c1C(=O)C(=O)NC(C)(C)C	>30 µM
COC(=O)c1c2c(c3ccccc3c1OC(C)=O)OC(C)(C)CC2	25 µg/mL
Cc1cc(NC(=O)c2c3c(c(C)n2C)C(=O)N[C@@H](C)C3)ccc1F	>30 µM
COc1ccc(C(=O)O[C@H]2c3c(ccc4c(C)cc(=O)oc34)OC(C)(C)[C@H]2OC(=O)c2ccc(OC)cc2)cc1	50.92 µM
COc1ccc2nc3cc(Cl)ccc3c(NCCCCNC(=O)/C=C/c3ccc(Br)cc3)c2c1	3.4 µM
CC(C)C[C@@H]1NC(=O)[C@H](Cc2c[nH]c3ccccc23)NC(=O)[C@@H](CCCCN)NC(=O)[C@H](CCCCN)NC(=O)[C@H](C(C)C)NC(=O)[C@@H](CC(C)C)NC1=O	>30 µM
CC1(C)CCc2c(C(=O)OCc3ccccc3)c(O)c3ccccc3c2O1	25 µg/mL
Cc1ccc(F)c(NC(=O)c2c3c(c(C)n2C)C(=O)NC(C)(C)CC3)c1	>30 µM
C[C@@H](CCCCCC(F)(F)F)CC1=C(O)c2ccccc2C(=O)C1=O	6.83 µM
CC1(C)CCc2c(C(=O)Oc3ccc([N+](=O)[O-])cc3)c(O)c3ccccc3c2O1	50 µg/mL
Cc1c2c(c(C(=O)Nc3cc(F)c(F)c(F)c3)n1C)CCC(C)(C)NC2=O	>30 µM
Fc1ccccc1-c1nc2ccn(Cc3ccc(-c4ccc(C(F)(F)F)cc4C(F)(F)F)nn3)cc-2n1	25 µg/mL
Cc1cc(NC(=O)c2c(C)c(C(=O)C(=O)NCC(C)(C)O)n(C)c2-c2cccnc2)ccc1F	>30 µM
COc1ccc(C(=O)O[C@H]2c3c(ccc4c(C)cc(=O)oc34)OC(C)(C)[C@H]2OC(=O)c2ccc(OC)c(OC)c2)cc1OC	67.54 µM
CC(C)C[C@@H]1NC(=O)[C@H](Cc2c[nH]c3ccccc23)NC(=O)CNC(=O)[C@H](CC(N)=O)NC(=O)[C@H](C(C)C)NC(=O)[C@@H](CC(C)C)NC1=O	>30 µM
Cc1cc(NC(=O)c2c(C)c(C(=O)C(=O)NC3CCC(S(C)(=O)=O)CC3)n(C)c2-c2cccnc2)ccc1F	>30 µM
C/C=C\C(=O)O[C@H]1c2c(ccc3c(C)cc(=O)oc23)OC(C)(C)[C@H]1OC(=O)/C=C\C	15.62 µM
Cc1cccc(NC(=O)c2c3c(c(C)n2C)C(=O)N[C@@H](C)C3)c1F	>30 µM
Cc1cc(=O)oc2c3c(ccc12)OC(C)(C)[C@@H](OC(=O)c1cc(Cl)ccc1Cl)[C@H]3OC(=O)c1cc(Cl)ccc1Cl	>100 µM
COC(=O)c1c2c(c3ccccc3c1O)OC(C)(C)CC2	6.25 µg/mL
Cc1cc(=O)oc2c3c(ccc12)OC(C)(C)[C@@H](OC(=O)CC(C)C)[C@H]3OC(=O)CC(C)C	78.23 µM
Cc1cc(NC(=O)c2c(C)c(C(=O)C(=O)N[C@@H]3C[C@@H](C(=O)O)N(C)C3)n(C)c2C)ccc1F	>30 µM
CC(C)C[C@@H]1NC(=O)[C@H](Cc2c[nH]c3ccccc23)NC(=O)C(CCCN=C(N)N)NC(=O)[C@H](CC(N)=O)NC(=O)[C@H](C(C)C)NC(=O)[C@@H](CC(C)C)NC1=O	>30 µM

Lines come from different laboratories, so protocols vary.